Pooled drug test results. Numbers come from NIAID ChemDB, via PubChem.

Shared fields: growth or infection tests; agent: Candida albicans; measure: MIC

Neighbouring rows are from separate reports. Blank or dashed fields: not listed here.

SMILES,strain,value
O=[N+]([O-])c1ccc2[nH]c3c4ccc(Cl)cc4nnc3c2c1,-,66 µM
CN(CCCC#CC(C)(C)C)c1cccc2c1CCC(=O)N2,Clinical isolate 18,7.8 µg/mL
Cc1ccc(-c2nn(-c3ccccc3)cc2/C=N/N=c2\sc3c(=O)[nH]cnc3n2-c2ccccc2)cc1,-,>200 µg/mL
Clc1ccc2nnc3c4ccccc4[nH]c3c2c1,-,12 µM
O=Nc1c(-c2ccc(F)cc2)nc2ncccn12,-,15 µg/mL
CC(C)(C)COC(=O)N[C@H](Cc1cn(Cc2ccccc2[N+](=O)[O-])nn1)C(=O)OCc1cn(Cc2ccccc2[N+](=O)[O-])nn1,MTCC 183,18.4 µM
Cc1ccc(-c2nn(-c3ccccc3)cc2/C=N/n2cnc3c(sc(=S)n3-c3ccc(C)cc3)c2=O)cc1,-,200 µg/mL
C[C@H]1[C@H](O)[C@@H](C)/C=C/C=C/C=C/C=C/C=C/C=C/C=C/[C@H](O[C@@H]2O[C@H](C)[C@@H](O)[C@H](N)[C@@H]2O)C[C@@H]2O[C@](O)(C[C@@H](O)C[C@@H](O)CC[C@H](O)[C@@H](O)C[C@@H](O)CC(=O)O[C@H]1C)C[C@H](O)[C@H]2C(=O)O,M27587,<0.06 µg/mL
O=C(Cc1ccc(Br)cc1)Nc1ccc2oc(-c3ccccc3)nc2c1,ATCC 10145,25 µg/mL
Cc1c(S(=O)(=O)c2ccccc2)[n+](=O)c2cc(Cl)ccc2n1[O-],Clinical isolate 20,62.5 µg/mL
COc1cc(NC2=C(SC)C(=O)c3ncccc3C2=O)cc(OC)c1,ATCC 10231,50 µg/mL
O=C(N[C@H](Cc1cn(CCc2ccccc2)nn1)C(=O)OCc1cn(CCc2ccccc2)nn1)OCc1ccccc1,MTCC 183,9.8 µM
O=Nc1c(-c2cccc([N+](=O)[O-])c2)nc2ncccn12,-,9 µg/mL
Cc1c(S(=O)(=O)c2ccccc2)[n+](=O)c2ccccc2n1[O-],Clinical isolate 16,31.25 µg/mL
Cc1ccc(-c2nn(-c3ccccc3)cc2/C=N/N=c2\sc3c(=O)[nH]c(C)nc3n2-c2ccc(C)cc2)cc1,-,100 µg/mL
O=C(N[C@H](Cc1cn(Cc2cccc([N+](=O)[O-])c2)nn1)C(=O)OCc1cn(Cc2cccc([N+](=O)[O-])c2)nn1)OCc1ccccc1,MTCC 183,8.9 µM
CSC1=C(Nc2ccc(Br)c(C)c2)C(=O)c2cccnc2C1=O,ATCC 10231,3.2 µg/mL
CC1OC(O[C@@]2(C)CC(=O)[C@]3(O)C4=C(C=C[C@]3(O)C2)C(=O)c2c(ccc(C3CCC(OC5CCC(O)C(C)O5)C(C)O3)c2O)C4=O)C=CC1=O,6 strains,≥128 µg/mL
CN1CCN(CC(=O)Nc2ccc3oc(-c4ccccc4)nc3c2)CC1,ATCC 10145,50 µg/mL
CCOC(=O)c1ccc(NC2=C(SC)C(=O)c3ncccc3C2=O)cc1,ATCC 10231,12.5 µg/mL
CCn1c2c(c3ccccc31)C(=O)c1nccc(C)c1C2=O,-,>200 µg/mL
CCc1ccc(-c2nc3cc(NC(=O)Cc4ccc(Br)cc4)ccc3o2)cc1,ATCC 10145,50 µg/mL
O=Nc1c(-c2ccc(Cl)cc2)nc2ncccn12,-,2 µg/mL
Cc1c(Cl)[n+](=O)c2cc(Cl)ccc2n1[O-],Clinical isolate 3,15.6 µg/mL
Cc1ccc(-c2nc3ncccn3c2N=O)cc1,-,30 µg/mL
CSC1=C(Nc2ccc(Cl)c([N+](=O)[O-])c2)C(=O)c2cccnc2C1=O,ATCC 10231,6.3 µg/mL
O=[N+]([O-])c1ccc2[nH]c3c4ccccc4nnc3c2c1,-,1.6 µM
CSC1=C(Nc2ccc(Br)cc2Cl)C(=O)c2cccnc2C1=O,ATCC 10231,25 µg/mL
CC(C)(C)COC(=O)N[C@H](Cc1cn(Cc2ccc([N+](=O)[O-])cc2)nn1)C(=O)OCc1cn(Cc2ccc([N+](=O)[O-])cc2)nn1,MTCC 183,18.4 µM
Cc1ccc(-c2nn(-c3ccccc3)cc2/C=N/NC2SC(C(N)=O)=C(N)N2c2ccc(C)cc2)cc1,-,>200 µg/mL
Cc1c(Sc2ccccc2)[n+](=O)c2cc(C(F)(F)F)ccc2n1[O-],Clinical isolate 6,15.6 µg/mL
Cc1ccc(-c2nn(-c3ccccc3)cc2/C=N/n2c(C)nc3c(sc(=S)n3-c3ccccc3)c2=O)cc1,-,>200 µg/mL
Cc1ccccc1Cn1cc(COC(=O)[C@@H](Cc2cn(Cc3ccccc3C)nn2)NC(=O)OCc2ccccc2)nn1,MTCC 183,9.8 µM

For reference, 3 entries again:

SMILES | strain | value
O=Nc1c(-c2ccc(Cl)cc2)nc2ncccn12 | - | 2 µg/mL
Cc1c(Sc2ccccc2)[n+](=O)c2cc(C(F)(F)F)ccc2n1[O-] | Clinical isolate 6 | 15.6 µg/mL
Cc1ccc(-c2nn(-c3ccccc3)cc2/C=N/N=c2\sc3c(=O)[nH]cnc3n2-c2ccccc2)cc1 | - | >200 µg/mL